The source of these data is patent publication US20150376654A1 (priority 2011, published 2015).

Read-outs that look alike come from different tables or passages of the source.

This series concerns C. autoethanogenum DSM23693 wild-type (WT), parental. The procedure:
To investigate whether overexpression of GroESL enhances ethanol tolerance of C. autoethanogenum DSM23693, both wild-type (WT), i.e. parental microorganism and transformed strain carrying plasmid pMTL85246-GroESL were challenged with different concentrations of ethanol (FIG. 8).
Growth experiments in triplicates were carried out in 50 ml PETC media (Table 1) in serum bottles sealed with rubber stoppers and 30 psi steel mill gas (collected from New Zealand Steel site in Glenbrook, NZ; composition: 44% CO, 32% N2, 22% CO2, 2% H2) in the headspace as sole energy and carbon source. […] All cultures were inoculated to the same optical density using the same pre-culture for either wild-type (parental) or transformed strain. Changes in biomass were measured spectrophotometrically at 600 nm until growth ceased. The maximum biomass of each culture was compared with the unchallenged culture.

Take `CCO` [ethanol]: the Ethanol produced result is, setting by setting: (all cultures of the wild-type in which ethanol was added) “less than 0.14 g/L”; (ethanol at inoculation 0.09 g/L (no ethanol added), 40 hours of growth) 0.72 g/L; (ethanol at inoculation 14.58 g/L, 40 hours of growth) 0.01 g/L; (ethanol at inoculation 28.19 g/L, 40 hours of growth) -0.02 g/L; (ethanol at inoculation 44.89 g/L (added around 45 g/L), 40 hours of growth) 0.04 g/L; (ethanol at inoculation 55.19 g/L (added around 60 g/L), 40 hours of growth) 0.14 g/L. The “Total ethanol after 40 h” value turned out to be 0.81 g/L (ethanol at inoculation 0.09 g/L (no ethanol added)); 14.59 g/L (ethanol at inoculation 14.58 g/L); 28.17 g/L (ethanol at inoculation 28.19 g/L); 44.93 g/L (ethanol at inoculation 44.89 g/L); 55.33 g/L (ethanol at inoculation 55.19 g/L).
